# Primary screen of a compound library

Data taken from ChEMBL document CHEMBL3988442, “University of Dundee, Small-Polar-MMV Screening Library” (2021).

Mtb glucose medium: 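Phenotypic screen: M. tuberculosis growth, glucose 7H9 medium, 3 days; the read-out is not stated. Concentration: 500 µM. Direction is inferred from retests: higher values go with more growth inhibition. Of about 18,000 compounds tested this way, about 1,400 (7.9%) reached 50% or more in at least one test.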
Mtb cholesterol medium: 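Phenotypic screen: M. tuberculosis growth, cholesterol and DPPC medium, 4 days; the read-out is not stated. Compounds at 500 µM. The record gives no direction; compounds that gave an IC50 in retests scored well above the rest, so higher reads as more growth inhibition. Size under these conditions: about 18,000 compounds, about 900 of them at 50% or above in at least one test.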

Values are the deposited “Percent Effect”, in %. The controls that fix the scale are not given in the record; negative values are as filed. The entries come from a sample that favours strong results. A dash means the value is not listed here; it may have been measured.

| # | SMILES | Mtb glucose medium | Mtb cholesterol medium |
|---|---|---|---|
| 1 | `Cn1c(SCC(=O)NC(N)=O)nnc1C(F)(F)F` | -7.095% | - |
| 2 | `CCCn1ncnc1C(C)NC(=O)c1ccc(N)nc1` (centres unmarked) | -7.894% | - |
| 3 | `CCn1c(CN2CCCC2)nnc1[C@H]1C[C@H](N)C1` | 15.29% | - |
| 4 | `CC(=O)NCC1CN(c2ncccc2F)CCO1` (centres unmarked) | 56.97% | - |
| 5 | `Cc1ccc(NCc2cccc(O)c2)cc1S(C)(=O)=O` | 73.55% | 68.26% |
| 6 | `CCN(CC)c1ccc(C(=O)Nc2cc[nH]n2)cn1` | 70.85% | 99.47% |
| 7 | `CC(C)c1noc(CCNC(=O)C2CC2)n1` | 10.47% | - |
| 8 | `OCC1(CO)COC1` | - | -2.287% |
| 9 | `NC1CCCN(c2cccc(F)c2)C1` (centres unmarked) | 25.25% | - |
| 10 | `NCCCc1nc(-c2ccccn2)cs1` | 34.19% | 17.35% |
| 11 | `CN(C)C(=O)c1csc2c1CCCC2` | 46.53% | 50.42% |
| 12 | `CCC(N)C(=O)N(CC)Cc1ccoc1` (centres unmarked) | - | -14.3% |
| 13 | `COCCn1cnnc1CN(C)Cc1nc(C)no1` | - | -1.733% |
| 14 | `Cc1ccsc1CN(C)C(=O)Cn1cccnc1=O` | 18.5% | - |
| 15 | `CC1(C)CCC(CN)O1` (centres unmarked) | 6.45% | - |
| 16 | `Cn1cc(C(=O)NCc2cccc(F)c2)ccc1=O` | -3.376% | -7.69% |
| 17 | `CCOC(=O)C1CCCN(c2nccnc2C#N)C1` (centres unmarked) | 42.93% | 21.15% |
| 18 | `CCC(CC)CN(CCC#N)C(=O)c1cccnc1` | 11.1% | - |
| 19 | `CC1CCCCN1S(=O)(=O)N1CCNCC1` (centres unmarked) | - | 79.13% |
| 20 | `CC(C)=CCC1(CO)CCCN(CCS(C)(=O)=O)C1` (centres unmarked) | 15.91% | - |
| 21 | `OCCOc1ccc(OCCO)cc1` | 12.94% | 9.29% |
| 22 | `COc1cccc(NCCC#N)c1` | 30.24% | 25.01% |
| 23 | `CCN(CC)S(=O)(=O)NCCCN1CCCCCC1=O` | 9.498% | - |
| 24 | `CC(NC(=O)c1ccc(Br)s1)C(=O)N(CCO)C1CC1` (centres unmarked) | 24.7% | - |
| 25 | `CCC(=O)NC1CN(C(=O)OC(C)(C)C)C1` | - | 8.151% |
| 26 | `Cc1ccccc1C(=O)OCc1nc(N)nc(N)n1` | - | 10.84% |
| 27 | `CN(C)C(CN)c1cccc(F)c1` (centres unmarked) | 56.45% | - |
| 28 | `Nc1ncccc1CN1CCC(N2CCCCC2)C1` (centres unmarked) | - | -39.26% |
| 29 | `COCCN1CCN(CCS(=O)(=O)C(F)(F)F)CC1` | 103% | 108.3% |
| 30 | `COCCOc1cc(C)ccc1CN` | 46.32% | 27.02% |
| 31 | `CN(CC(=O)NCC1CCCO1)CC1CC1` (centres unmarked) | 31.99% | - |
| 32 | `O=C(NCC(=O)N1CCCCCC1)c1ccco1` | - | 13.22% |
| 33 | `CC(C)COc1ccccc1NC(C)C(=O)NC(N)=O` (centres unmarked) | 5.812% | - |
| 34 | `NC(=O)CCN1CCCN(Cc2ccccc2F)CC1` | 24.85% | - |
| 35 | `CNC(=O)CCc1cnn(-c2ccccc2)c1` | 24.57% | -4.818% |
| 36 | `COCC(NC(=O)c1cccc(Cl)c1F)C(N)=O` (centres unmarked) | 6.356% | - |
| 37 | `Cn1nccc1C(=O)NCc1cccs1` | 42.87% | 24% |
| 38 | `CC(C)C(C)(C#N)NC(=O)CNc1cccc(F)c1` (centres unmarked) | 72.49% | 73.24% |
| 39 | `Cc1n[nH]cc1CNCCS(=O)(=O)Cc1ccccc1` | - | 8.805% |
| 40 | `CNC(C)c1ccc(S(C)(=O)=O)cc1` (centres unmarked) | 5.777% | - |
| 41 | `Cc1ccncc1NC1CS(=O)(=O)c2ccccc21` (centres unmarked) | 96.08% | 101.1% |
| 42 | `CC(C)NC(=O)c1nnn(-c2cccc(Br)c2)c1N` | -2.211% | - |
| 43 | `Cc1cccc(NC(=O)NCc2c(C)noc2C)n1` | 53.53% | - |
| 44 | `CCOc1ccc(OCC)c(NC(=O)CN)c1` | 13.66% | - |
| 45 | `COc1cccc(CO)n1` | 9.882% | 11.1% |
| 46 | `NCc1cccc(NC(=O)NC2CC2)c1` | 6.196% | - |
| 47 | `CCSc1nnc(-c2ccc[nH]2)o1` | 53.82% | 55.99% |
| 48 | `COc1cccc(C(=O)N2C[C@H](C3CC3)[C@@H](N)C2)c1C` | - | 19.18% |
| 49 | `O=C1CCCCN1Cn1cc(I)cn1` | 62.91% | 50.3% |
| 50 | `O=C(C1CCCO1)N1CCN(c2cncc(Cl)n2)CC1` (centres unmarked) | 34.97% | - |
| 51 | `CCOc1ccc(C(=O)N2CCN(C)CC2)cc1C` | - | 24.72% |
| 52 | `CC(CO)Sc1ccc(S(=O)(=O)C(F)F)cc1` (centres unmarked) | 56.44% | 73.96% |
| 53 | `C1CN[C@H]2COC[C@H]2C1` | -2.419% | - |
| 54 | `Nc1[nH]nc(C(=O)N2CCCC(c3nnc[nH]3)C2)c1Cl` (centres unmarked) | 4.195% | - |
| 55 | `CCC1CN(CCN2CCOCC2)CCN1CC(F)F` (centres unmarked) | - | -11.7% |
| 56 | `O=C(NCC1(O)CCNC1)c1cccc(OC(F)F)c1` (centres unmarked) | - | 12.79% |
| 57 | `CCn1c(CN2CCC(O)CC2)nnc1[C@H]1C[C@H](N)C1` | 8.943% | - |
| 58 | `CCC(C(=O)Nc1ccc(OC)cc1)N(C)C` (centres unmarked) | 12.84% | - |
| 59 | `CCOc1ccc(-n2c(CCN)n[nH]c2=O)cc1` | - | 5.344% |
| 60 | `NCC(=O)N1CCN(c2ccc(Cl)cc2)CC1` | - | -3.376% |
| 61 | `N#Cc1ncn(CC2CCCCO2)c1C#N` (centres unmarked) | - | 15.6% |
| 62 | `CCNS(=O)(=O)C1CCN(c2ccncc2Cl)C1` (centres unmarked) | 12.45% | - |
| 63 | `CCOCCCNC(=O)Nc1nnc2ccccn12` | 5.158% | - |
| 64 | `CN1C[C@@H](N)C[C@H]1c1nc(C2CCOCC2)n[nH]1` | - | -19.75% |
| 65 | `O=C(Cc1cccc(O)c1)NCCNc1ccccc1` | 40.46% | - |
| 66 | `CCc1[nH][nH]c(=O)c1CCN` | - | 17.75% |
| 67 | `CS(=O)(=O)CCNC(=O)CCN1CCCCCCC1` | 6.77% | 10.79% |
| 68 | `c1nnc(C2COCCN2)o1` (centres unmarked) | -8.387% | - |
| 69 | `N#CCCn1cc(C(N)=O)cn1` | - | -18.01% |

Repeated from the top, 4 entries:

SMILES,Mtb glucose medium,Mtb cholesterol medium
Cn1c(SCC(=O)NC(N)=O)nnc1C(F)(F)F,-7.095%,-
CCCn1ncnc1C(C)NC(=O)c1ccc(N)nc1 (centres unmarked),-7.894%,-
CCn1c(CN2CCCC2)nnc1[C@H]1C[C@H](N)C1,15.29%,-
CC(=O)NCC1CN(c2ncccc2F)CCO1 (centres unmarked),56.97%,-